Numbering of substitutions follows the chain as printed. Human monoclonal antibodies against the spike receptor-binding domain (heavy:light variable regions). IC50 against pseudoviruses bearing the spike of naturally observed variants; lower = stronger; >10 µg/ml means not reached at the top dose. No active / inactive call. The stated detection limit is 0.0005 µg/ml; values near or below 0.001 µg/ml lie at the floor of the assay.
Tests used:
Test in all cases: pseudovirus neutralization IC50; higher = weaker neutralization
[1] = biological target: SARS-CoV-2 Omicron BA.1 spike pseudovirus
Protocol: (§1)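 Single-round VSV luciferase pseudovirus mixed with antibody dilutions for 1 h and put on Huh-7 cells for about a day; IC50 from the dose curve.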

[2] = biological target: SARS-CoV-2 Omicron BA.2 spike pseudovirus
Protocol: as §1

[3] = biological target: SARS-CoV-2 Omicron BA.2.75 spike pseudovirus
Protocol: as §1

[4] = biological target: SARS-CoV-2 Omicron BA.5 spike pseudovirus
Protocol: as §1

[5] = biological target: SARS-CoV-2 Omicron BQ.1.1 spike pseudovirus
Protocol: as §1

[6] = biological target: SARS-CoV-2 Omicron XBB spike pseudovirus
Protocol: as §1

[7] = biological target: SARS-CoV-2 early D614G spike pseudovirus
Protocol: as §1

B1: BD55-1065 (protein)
chain 1: QVQLVQSGAEVKQPGSSVRVSCRASGDTFNNYAINWVRQAPGQGLEWMGRIIPIVAATSYAQRFQGRVTMTADKSTSTAHMELSTLRSDDTAVYFCATSRYSAGYLYYFDYWGQGTLVTVSS
chain 2: EIVLTQSPGTLSLSPGERVTLSCRASQSISSDYLAWYQQKPGQGPRLLIYAASSRATGIPDRFSGSGSGTDFTLTVSRLEPEDFAVYYCQQYATSRTFGQGTKVEIK
[1]
  pseudovirus neutralization IC50: > 10 µg/mL
[2]
  pseudovirus neutralization IC50: > 10 µg/mL
[3]
  pseudovirus neutralization IC50: > 10 µg/mL
[4]
  pseudovirus neutralization IC50: > 10 µg/mL
[5]
  pseudovirus neutralization IC50: > 10 µg/mL
[6]
  pseudovirus neutralization IC50: > 10 µg/mL
[7]
  pseudovirus neutralization IC50: 0.00132 µg/mL

B2: BD55-5473 (protein)
chain 1: QVQLQESGPGLVKPSETLSLTCTVSGASTSTFYWSWIRQPPGKGLEWIGYIFYSGSTNYNPSLKSRVTMSVDTSKNQFSLNLSSVTAADTAVYYCARECGGDCYSMQAFDIWGQGTMVTVSS
chain 2: SYELTQPPSVSVSPGQTARITCSGDALPNQYVYWYQQRPGQAPVLVIYKDTERPSGIPGRFSGSSSGTTVTLTISGVQAEDEADYYCQSTDSGGIYGKRVFGGGTKLTVL
[1]
  pseudovirus neutralization IC50: > 10 µg/mL
[2]
  pseudovirus neutralization IC50: > 10 µg/mL
[3]
  pseudovirus neutralization IC50: > 10 µg/mL
[4]
  pseudovirus neutralization IC50: > 10 µg/mL
[5]
  pseudovirus neutralization IC50: > 10 µg/mL
[6]
  pseudovirus neutralization IC50: > 10 µg/mL
[7]
  pseudovirus neutralization IC50: 0.664 µg/mL

B3: BD55-5448 (protein)
chain 1: EVQLVESGGGVVQPGGSLRLSCVASGFTFDDYDMHWVRQAPGKGLEWVSLINGDGHSPYYADSVKGRFTISRDNRKNSLYLQMNSLRSEDTALYYCGKDISCSGGSCKWAQTLIDHWGQGTLVTVSS
chain 2: QSVLTQPPSVSGAPGQRVTIPCTGSSSNIGAGYDVHWYQQLPGTAPKLLIFGNTNRPSGVPDRFSGSKSGTSASLAITGLQAEDEADYYCQSYDSTQSGSWVFGGGTKLTVL
[1]
  pseudovirus neutralization IC50: > 10 µg/mL
[2]
  pseudovirus neutralization IC50: > 10 µg/mL
[3]
  pseudovirus neutralization IC50: > 10 µg/mL
[4]
  pseudovirus neutralization IC50: > 10 µg/mL
[5]
  pseudovirus neutralization IC50: > 10 µg/mL
[6]
  pseudovirus neutralization IC50: > 10 µg/mL
[7]
  pseudovirus neutralization IC50: 1.31 µg/mL

B4: BD55-5472 (protein)
chain 1: QITLRESGPTLVKPTQTLTLTCTFSGFSVNKNGVAVGWIRQPPGKALEWLALIYWDDEKRYSPLLKTRLTITKDTSKNQVVLTMTNMDPVDTATYYCAHRPDLDTDMVVVDAFDVWGQGTMVTVSS
chain 2: QSVLTQPPSASGTPGQRVTISCSGSSSNIGRNAVNWYQQLPGTAPKLLIYNNNHRPSGVPDRFSGSKSGTSASLAISGLQSEDEADYYCASWDDSLSGVLFGGGTKLTVL
[1]
  pseudovirus neutralization IC50: 0.512 µg/mL
[2]
  pseudovirus neutralization IC50: 0.732 µg/mL
[3]
  pseudovirus neutralization IC50: 0.898 µg/mL
[4]
  pseudovirus neutralization IC50: 0.7 µg/mL
[5]
  pseudovirus neutralization IC50: 0.764 µg/mL
[6]
  pseudovirus neutralization IC50: 0.97 µg/mL
[7]
  pseudovirus neutralization IC50: 0.108 µg/mL

B5: BD55-5485 (protein)
chain 1: QITLSESGPTLVKPTQTLTLTCTFSGFSLSNIRVGVGWIRQPPGKALEWLALIYGDDDKRYSPSLKSRVTVTKDTSKNQVVLIMTNMDPVDTATYYCAHAAYGGSWHYLGFDSWGQGTLVTVSS
chain 2: B4 chain 2 with V3L, R31N, A33P, N51I, N52Y, H54Q, S91A, S97N, V99P, L100V
[1]
  pseudovirus neutralization IC50: > 10 µg/mL
[2]
  pseudovirus neutralization IC50: > 10 µg/mL
[3]
  pseudovirus neutralization IC50: > 10 µg/mL
[4]
  pseudovirus neutralization IC50: > 10 µg/mL
[5]
  pseudovirus neutralization IC50: > 10 µg/mL
[6]
  pseudovirus neutralization IC50: > 10 µg/mL
[7]
  pseudovirus neutralization IC50: > 10 µg/mL

B6: BD55-5457 (protein)
chain 1: QAQLVQSGAEVKKPGASVKVSCKASGYTLTSYGFSWVRQAPGQGLEWMGWINSYNGNTKITQKFQGRVSMTTDTSTSTAYMEVRSLRSDDTAVYYCARGYEYYDMLTGDYTFHYNAMDVWGQGTTVTVSS
chain 2: EIVLAQSPGTLSLSPGHRATLSCRASQSITNNFLAWYQQKPGQAPRLLIYGASSRATGIPDRFSGSGSGTDFTLTISRLEPEDFAVYYCQQYGGSVTFGGGTKVEIK
[1]
  pseudovirus neutralization IC50: > 10 µg/mL
[2]
  pseudovirus neutralization IC50: > 10 µg/mL
[3]
  pseudovirus neutralization IC50: > 10 µg/mL
[4]
  pseudovirus neutralization IC50: > 10 µg/mL
[5]
  pseudovirus neutralization IC50: > 10 µg/mL
[6]
  pseudovirus neutralization IC50: > 10 µg/mL
[7]
  pseudovirus neutralization IC50: > 10 µg/mL

B7: BD55-1061 (protein)
chain 1: EVQLVESGGGLIQPGGSLRLSCVVSGFTVSRNYMSWVRQAPGKGLEWVSLIHPGGSTFFAESVKDRFTMSRDNYKNTLYLQMDSLGVEDTAVYYCARMPYYANLGSESWGQGTLVTVSS
chain 2: DIQMTQTPSSLSAFVGDRVTITCQARQDISKYLNWYQQKPGKAPKLLIYDASNLETGVPSRFSGSGSGTNFTFTISSLQPEDVATYYCQHYDNVPITFGQGTRLEIK
[1]
  pseudovirus neutralization IC50: 0.0145 µg/mL
[2]
  pseudovirus neutralization IC50: 0.0158 µg/mL
[3]
  pseudovirus neutralization IC50: 0.357 µg/mL
[4]
  pseudovirus neutralization IC50: 0.0845 µg/mL
[5]
  pseudovirus neutralization IC50: > 10 µg/mL
[6]
  pseudovirus neutralization IC50: > 10 µg/mL
[7]
  pseudovirus neutralization IC50: 0.00714 µg/mL

B8: BD55-5493 (protein)
chain 1: QVQLQESGPGLVKPSETLSLTCTVSSGSIRGYYWSWIRQPPGKGLEWMAYVYSSGSTNYNPSLKSRLSISEDTTNNQFSLKLRSVTAADTAVYYCARHAFYYDSSGLRSHDNWFDSWGQGTRVTVSS
chain 2: DIQMTQSPSSVSASVGDRVTITCRASQGISNWLAWYQQKPGKAPKLLIYDISTLQNGVPSRFSGSGSGTDFTLTISSLQPEDFATYYCQQANSFPWTFGQGTKVEIK
[1]
  pseudovirus neutralization IC50: > 10 µg/mL
[2]
  pseudovirus neutralization IC50: > 10 µg/mL
[3]
  pseudovirus neutralization IC50: > 10 µg/mL
[4]
  pseudovirus neutralization IC50: > 10 µg/mL
[5]
  pseudovirus neutralization IC50: > 10 µg/mL
[6]
  pseudovirus neutralization IC50: > 10 µg/mL
[7]
  pseudovirus neutralization IC50: 0.119 µg/mL

B9: BD55-5466 (protein)
chain 1: EVQLVESGGGLVKPGGSLRLSCSASGFTFSSYTLGWVRQAPGKGLEWVSSISGSSTFIFYADSVQGRFTISRDNAKNSLYLQMNSLRAEDTAVYYCTRNFDVLTAYADAEYFQHWGQGTLVSVSS
chain 2: EIVLTQSPAMLSLSPGERATLSCRASQSVDTYLAWYQQKPGQAPRLLIYDASNRATGIPARFSGSGSGTDFTLTISSLEPEDFAVYYCQQRTNWPPYTFGQGTKLEIK
[1]
  pseudovirus neutralization IC50: 1.02 µg/mL
[2]
  pseudovirus neutralization IC50: 5.97 µg/mL
[3]
  pseudovirus neutralization IC50: 2.77 µg/mL
[4]
  pseudovirus neutralization IC50: 4.53 µg/mL
[5]
  pseudovirus neutralization IC50: 3.16 µg/mL
[6]
  pseudovirus neutralization IC50: 3.96 µg/mL
[7]
  pseudovirus neutralization IC50: 0.269 µg/mL

B10: BD55-5477 (protein)
chain 1: QVTLKESGPVLVKPTETLTLTCTVSGFSLSDARMGVSWIRQPPGKALEWLAHIFSNDEKSYSTSLTSRLTISKDTSKSQVVLTMTNMDPVDTGTYYCARSQGGWVMEDYYYYMDVWGKGTTVTVSS
chain 2: EIVMTQSPATLSVSPGERATFSCRASQSLTRNLAWFQQKPGQAPRLLIYGSSTRATGIPARFSGSGSGTEFTLTISSLQSEDFAVYYCQHYNNWPPTWTFGQGTKVEIK
[1]
  pseudovirus neutralization IC50: 0.0212 µg/mL
[2]
  pseudovirus neutralization IC50: 0.0559 µg/mL
[3]
  pseudovirus neutralization IC50: 0.195 µg/mL
[4]
  pseudovirus neutralization IC50: 0.0927 µg/mL
[5]
  pseudovirus neutralization IC50: 0.9 µg/mL
[6]
  pseudovirus neutralization IC50: 3.84 µg/mL
[7]
  pseudovirus neutralization IC50: 0.00158 µg/mL

B11: BD55-5435 (protein)
chain 1: EVQLVESGGGPVKPGGSLRLSCAASGFTFSASGMNWVRQAPGKGLEWVSSISSSGSLVFYADSVKGRFTMSRDNAKNSLYLQMNSLKAEDTAVYYCARTDSSAYDHYFDYWGQGTLVTVSS
chain 2: DIQMTQSPSSLSASVGDRVTISCRASQGIRNSLAWYQQKAGKAPKLLLHGSSRLQSGVPSRFSGSGSGTDYTLTISSLQPEDFATYYCQQYYETPQVTFGQGTKLEIK
[1]
  pseudovirus neutralization IC50: > 10 µg/mL
[2]
  pseudovirus neutralization IC50: > 10 µg/mL
[3]
  pseudovirus neutralization IC50: > 10 µg/mL
[4]
  pseudovirus neutralization IC50: > 10 µg/mL
[5]
  pseudovirus neutralization IC50: > 10 µg/mL
[6]
  pseudovirus neutralization IC50: > 10 µg/mL
[7]
  pseudovirus neutralization IC50: > 10 µg/mL

B12: BD55-5470 (protein)
chain 1: QLQLQGSGPGLVKPSETLSLTCTVSGGSISSSSHYWGWIRQPPGKGLEWIGSIYYSGSTRYNPSLKSRLTMSVDTSKNQFSLKLRSVIAADSAVYYCARLLVRGAIMQPEDYDYGMDVWGQGTTVTVSS
chain 2: DIQMTQSPSTLSASVGDRVTITCRASQSISHWLAWYQQKPGRAPKLLIYKASNLESGVPSRFSGSGSGTEFTLTISSLQPDDFATYYCQEYYSLWTFGQGTKVEIK
[1]
  pseudovirus neutralization IC50: > 10 µg/mL
[2]
  pseudovirus neutralization IC50: > 10 µg/mL
[3]
  pseudovirus neutralization IC50: > 10 µg/mL
[4]
  pseudovirus neutralization IC50: > 10 µg/mL
[5]
  pseudovirus neutralization IC50: > 10 µg/mL
[6]
  pseudovirus neutralization IC50: > 10 µg/mL
[7]
  pseudovirus neutralization IC50: 0.561 µg/mL
